Measurements published in ChEMBL document CHEMBL4004820 (J Med Chem, 2017).

Test: Antiviral activity against Influenza A virus (A/WSN/1933(H1N1)) expressing M2 proton channel S31N mutant infected in MDCK cells assessed as reduction in cytopathic effect after 48 hrs by crystal violet staining-based microscopic analysis; call rule not given here

Compound	IC50
NC1(C23CC4CC(CC(C4)C2)C3)CCCCC1	Not Active
NC1(C23CC4CC(CC(C4)C2)C3)CCCC1	3.92 to 4.34 µM
